A mixed list of measured activities; the numbers were collected in NIAID ChemDB.

All rows: whole-cell or culture tests; species: Candida albicans

ECn is the concentration giving n% inhibition of infection, replication or growth. Neighbouring rows are from separate reports. An empty or dashed field is not shown. A number after MIC or MFC names an inhibition level or a share of isolates.

smiles	conditions	measure	read by	strain or isolate	result
O/N=C/c1ccc[n+](Cc2cc(C[n+]3cccc(/C=N/O)c3)on2)c1.[Br-].[Br-]		EC50	broth dilution		>20 µg/mL
OCC1c2ccccc2SC1c1cc(Br)ccc1O		MIC			>100 µg/mL
C=C(C)C(O)Cc1c(O)ccc(C(=O)/C=C/c2ccc(O)cc2)c1O		MIC50			15 µg/mL
C=C1C[C@@H]2C[C@@H]3CCO[C@@H](O3)c3coc(n3)/C=C/C[C@H]3O[C@@H](/C(C)=C/I)[C@H](C)[C@@H](OC(=O)/C=C/C[C@@H](C1)O2)[C@H]3C		MIC	broth dilution	UCD-FR1	>64 µg/mL
N#Cc1ccc(Nc2nc(Oc3ncnc4ccccc34)nc(N3CCCCC3)n2)cc1C(F)(F)F		MIC		MTCC 183	100 µM
OCC1c2ccccc2SC1c1ccccc1		MIC			50 µg/mL
COC(=O)c1ccc2nc(-c3ccccc3Cl)[nH]c2c1		MIC			50 µg/mL
C=C1C[C@@H]2C[C@@H]3CCO[C@@H](O3)c3coc(n3)/C=C/C[C@H]3O[C@@H](/C(C)=C/I)[C@H](C)[C@@H](OC(=O)/C=C\C[C@@H](C1)O2)[C@H]3C		MIC	broth dilution	UCD-FR1	>64 µg/mL
N[C@H]1CCC[C@H]1C(=O)O		MIC		83-2-14	5 µg/mL
Oc1ccccc1C=Nc1ccc(N2CCOCC2)cc1		MIC		ATCC 2091	28 µg/mL
C=C1C[C@@H]2C[C@@H]3CCO[C@@H](O3)c3cccc(c3)/C=C\C[C@H]3O[C@@H](/C(C)=C/C#N)[C@H](C)[C@@H](OC(=O)/C=C/C[C@@H](C1)O2)[C@H]3C		MIC	broth dilution	UCD-FR1	>64 µg/mL
COc1ccccc1C=NNC(=O)c1cnc2c(ccc3[nH]c(Cl)cc(C)c32)c1=O		MIC	broth dilution		500 µg/mL
Cc1ccc(O)c(C(=O)/C=C/c2ccc(O)cc2O)c1		MIC		SDAU4	75 µg/mL
O=c1[nH]n(-c2ccccc2)c(=O)c2cc3c(cc12)[nH]c1ccc(N2CCNCC2)cc13		MIC50	agar	Clinical isolates	128 µg/mL
CS(C)=O		MIC		MTCC 183	>100 µg/mL
CN(CCCC#CC(C)(C)C)c1cccc2c1CCC(=O)N2		MIC		Clinical isolate 16	62.5 µg/mL
Cc1cc(Cl)[nH]c2ccc3c(=O)c(C(=O)NN=Cc4cccc([N+](=O)[O-])c4O)cnc3c12		MIC	broth dilution		200 µg/mL
Cc1cc(C[n+]2cccc(C=NO)c2)on1.[Br-]		EC50	broth dilution		>20 µg/mL
CCC(C)CC(C)CCCCCCCCC(=O)NC1CCCNC(=O)[C@@H]2[C@@H](O)CCN2C(=O)[C@H]([C@H](O)CC(N)=O)NC(=O)[C@H](C(O)[C@H](O)c2ccc(O)cc2)NC(=O)[C@@H]2C[C@@H](O)CN2C(=O)[C@H]([C@@H](C)O)NC1=O		MFC		MY1208	1 µg/mL
Cc1cc2[nH]c3cc4c(=O)[nH]n(-c5ccccc5)c(=O)c4cc3c2cc1C		MIC50	agar	Clinical isolates	32 µg/mL
CCC(C)CC(C)CCCCCCCCC(=O)NC1C[C@H](O)[C@@H](O)NC(=O)[C@@H]2[C@@H](O)[C@@H](C)CN2C(=O)[C@H]([C@H](O)CC(N)=O)NC(=O)[C@H](C(O)[C@H](O)c2ccc(O)cc2)NC(=O)[C@@H]2C[C@@H](O)CN2C(=O)[C@H]([C@@H](C)O)NC1=O		MFC		MY1208	0.5 µg/mL
O=C(/C=C/c1cc(O)ccc1O)c1ccccc1		MIC		SDAU6	100 µg/mL
OC(CN1CCN(c2ccc(OCc3ccncc3)cc2)CC1)(Cn1cncn1)c1ccc(F)cc1F		MIC80		276	2 µg/mL
ON=Cc1ccc[n+](Cc2csc3ccccc23)c1.[Cl-]		EC50	broth dilution		>20 µg/mL
CCCCCOc1ccc(-c2cc(-c3ccc(C(=O)N[C@H]4C[C@@H](O)[C@@H](O)NC(=O)[C@@H]5[C@@H](O)[C@@H](C)CN5C(=O)[C@H]([C@H](O)CC(N)=O)NC(=O)[C@H]([C@H](O)[C@@H](O)c5ccc(O)c(OS(=O)(=O)O)c5)NC(=O)[C@@H]5C[C@@H](O)CN5C(=O)[C@H]([C@@H](C)O)NC4=O)cc3)no2)cc1		MIC90	broth dilution		0.016 µg/mL
C[C@H](N)C(=O)N[C@H](C(=O)O)n1cc(F)c(=O)[nH]c1=O		MIC		3153A	12.5 µg/mL
COc1ccc2c(Cc3ccc(C(C)(C)C)cc3)c3[n+](cc2c1OC)CCc1cc2c(cc1-3)OCO2		MIC		ATCC 10231	1.56 µg/mL
OCc1c(-c2ccc3c(c2)OCO3)sc2ccccc12		MIC			25 µg/mL
Cc1c(S(=O)(=O)c2ccccc2)[n+](=O)c2cc(Cl)ccc2n1[O-]		MIC		Clinical isolate 14	31.25 µg/mL
CC[C@@H]([C@H](C)O)n1ncn(-c2ccc(N3CCN(c4ccc(OC[C@@H]5CO[C@@](Cn6cncn6)(c6ccc(F)cc6F)C5)cc4)CC3)cc2)c1=O		MIC90		23 strains	0.125 µg/mL
Oc1cccc2c1[C@H](O)[C@H]1O[C@H]1C21Oc2cccc3cccc(c23)O1		EC50			>20 µg/mL
C(=Nc1ccc(N2CCOCC2)cc1)c1ccco1		MIC		ATCC 2091	25 µg/mL
Cc1c(Sc2ccccc2)[n+](=O)c2cc(Cl)ccc2n1[O-]		MIC		Clinical isolate 19	7.8 µg/mL
CCOC(=O)c1cnc2c(ccc3[nH]c(Cl)cc(C)c32)c1=O		MIC	broth dilution		200 µg/mL
CN[C@@H]1[C@H](O[C@@H]2OC[C@@H](O)[C@H](O)[C@H]2O)[C@@H](O)[C@H](O[C@H]2c3cc(C)c(C(=O)N[C@H](C)C(=O)O)c(O)c3-c3c(cc4c(c3O)C(=O)c3cc(OC)cc(O)c3C4=O)[C@@H]2O)O[C@@H]1C		MIC		IAM4888	6.3 µg/mL
Cc1ccc(C(C)C)c(O)c1		MLC		ATCC 10231	0.32 µg/mL
Cc1c(S(=O)(=O)c2ccccc2)[n+](=O)c2ccccc2n1[O-]		MIC		Clinical isolate 20	15.6 µg/mL
Cc1cc2c(c(O)c1-c1c(C)cc(O)c3c1C(=O)C=CC3=O)C(=O)CC[C@H]2O		EC50			>20 µg/mL
COC(=O)c1ccc2nc(-c3ccc(OC)cc3)[nH]c2c1		MIC			50 µg/mL
CN(C)c1ccc2[nH]c3cc4c(=O)[nH]n(-c5ccccc5)c(=O)c4cc3c2c1		MIC50	agar	Clinical isolates	512 µg/mL
N=C(N)c1ccc(OCCCCCCOc2ccc(C(=N)N)cc2)cc1		MIC	agar diffusion / agar	Ca1	29 µg/mL
C=C1C[C@@H]2C[C@@H]3CCO[C@@H](O3)c3cccc(c3)/C=C\C[C@H]3O[C@@H](/C(C)=C/I)[C@H](C)[C@@H](OC(=O)/C=C/C[C@@H](C1)O2)[C@H]3C		MIC	broth dilution	96-489	>64 µg/mL
Cc1cc(Cl)[nH]c2ccc3c(=O)c(C(=O)NN4C(=O)C(Cl)C4c4ccccc4O)cnc3c12		MIC	broth dilution		500 µg/mL
CCC(C)CC(C)CCCCCCCCC(=O)NC1C[C@H](O)[C@@H](O)NC(=O)[C@@H]2C[C@@H](O)CN2C(=O)[C@H]([C@H](O)CC(N)=O)NC(=O)[C@H](C(O)[C@H](O)c2ccc(O)cc2)NC(=O)[C@@H]2C[C@@H](O)CN2C(=O)[C@H]([C@@H](C)O)NC1=O		MFC		MY1055	2 µg/mL
CNCCN(C)c1ccc2[nH]c3cc4c(=O)[nH]n(-c5ccccc5)c(=O)c4cc3c2c1		MIC100	agar	Clinical isolates	64 µg/mL
COC(=O)c1ccc2nc(-c3ccc(Cl)cc3)[nH]c2c1		MIC			100 µg/mL
CC[C@]1(O)C[C@H]2CN(CCc3c([nH]c4ccccc34)[C@@](C(=O)OC)(c3cc4c(cc3OC)N(C=O)[C@H]3[C@@](O)(C(=O)OC)[C@H](OC(C)=O)[C@]5(CC)C=CCN6CC[C@]43[C@@H]65)C2)C1		MIC		ATCC28366	>500 µg/mL
COc1ccc(-c2sc3ccccc3c2CO)c(O)c1		MIC			100 µg/mL
NC(=O)c1cc[n+](Cc2ccc(C[n+]3ccc(C(N)=O)cc3)o2)cc1.[Br-].[Br-]		EC50	broth dilution		>20 µg/mL
COc1cccc(-c2sc3ccccc3c2CO)c1O		MIC			>100 µg/mL
Cc1cc(Cl)[nH]c2ccc3c(=O)c(C(=O)NN)cnc3c12		MIC	broth dilution		500 µg/mL
O=[N+]([O-])c1cccc(C=Nc2ccc(N3CCOCC3)cc2)c1		MIC		ATCC 2091	36 µg/mL
Nc1ncccc1-c1cc(Cc2ccc(COc3ccccn3)cc2)no1	90% human serum	MIC50	broth dilution	IFM49971	0.5 µg/mL
C[C@H]1[C@H](O)[C@@H](C)/C=C/C=C/C=C/C=C/C=C/C=C/C=C/[C@H](O[C@@H]2O[C@H](C)[C@@H](O)[C@H](N)[C@@H]2O)C[C@@H]2O[C@](O)(C[C@@H](O)C[C@@H](O)CC[C@H](O)[C@@H](O)C[C@@H](O)CC(=O)O[C@H]1C)C[C@H](O)[C@H]2C(=O)O		MIC		3153A	1.25 µg/mL
C(=Nc1ccc(N2CCOCC2)cc1)c1ccccc1		MIC		ATCC 2091	31 µg/mL

For reference, 4 entries again:

smiles,conditions,measure,read by,strain or isolate,result
Cc1ccc(C(C)C)c(O)c1,,MLC,,ATCC 10231,0.32 µg/mL
OCC1c2ccccc2SC1c1ccccc1,,MIC,,,50 µg/mL
COc1ccc(-c2sc3ccccc3c2CO)c(O)c1,,MIC,,,100 µg/mL
C=C1C[C@@H]2C[C@@H]3CCO[C@@H](O3)c3cccc(c3)/C=C\C[C@H]3O[C@@H](/C(C)=C/I)[C@H](C)[C@@H](OC(=O)/C=C/C[C@@H](C1)O2)[C@H]3C,,MIC,broth dilution,96-489,>64 µg/mL